Results from patent US10408836B2 (priority 2013, dated 2019).

System: influenza virus
Format: binding

## EGFR: epidermal growth factor receptor, recombinant host protein used as capturing agent
  viral capture, ranking of receptors: least effective
